A mixed list of measured activities; the numbers were collected in NIAID ChemDB.

Common to all: target-level tests

Inhibition is in % at the dose shown (toxicity tests: loss of growth or viability). Two numbers with a dash give a range or band. ICn: concentration for n% inhibition. Fold resistance has wild type as its base. Rows are shuffled and stem from different studies. Blank or dashed fields: not listed here.

compound | endpoint | protein | organism | mutations | dose | method | strain or isolate | result
C=CCN(C(=O)OCc1ccc([N+](=O)[O-])cc1)C1CCN(CC[C@](C)(CN(C)S(=O)(=O)c2ccccc2)c2ccccc2)CC1 | fold resistance | CCR5 |  | CCR5-W86A |  | radiometric |  | 76.5
O=C1/C(=C\c2ccc(Cl)c(F)c2)SC(=S)N1NS(=O)(=O)c1ccccc1 | IC50 | NS5B polymerase | Hepatitis C virus |  |  |  |  | ≤30 µM
CC(=O)OC1C=COC=C2C[C@@]34SC(=S)S[C@]5(CC6=COC=CC(OC(C)=O)C6N5C3=O)C(=O)N4C21 | IC50 | RNA polymerase | Coxsackie virus |  |  |  | TYPE A21 | 18 µg/mL
CN1CCN(c2nc3c(-c4ccc(F)cc4F)cc(C(=O)O)c(=O)n3cc2F)CC1 | IC50 | Gyrase | Staphylococcus aureus |  |  |  | NCTC10649 | 3 µg/mL
CC(=O)OC1C=COC=C2C[C@@]34SSSS[C@]5(CC6=COC=CC(OC(C)=O)C6N5C3=O)C(=O)N4C21 | IC50 | RNA polymerase | Coxsackie virus |  |  |  | TYPE A21 | 0.2 µg/mL
Cc1c(Sc2ccccc2)n(COCCO)c(=O)[nH]c1=O | fold resistance | Reverse transcriptase | HIV-1 | RT-V179D |  |  |  | 2
CSc1nncc2[nH]cnc12 | IC50 | Phosphoribosyltransferase | Toxoplasma gondii |  |  |  | RH | >900 µM
Cc1ccccc1S(=O)(=O)Nc1cc(-c2cccs2)sc1C(=O)O | IC50 | NS3 ATPase | Hepatitis C virus |  |  |  |  | <5 µM
CCCCCCCCCCCCc1cc2cn([C@H]3C[C@H](O)[C@@H](CO)O3)c(=O)nc2o1 | IC50 | Thymidine kinase | Varicella zoster virus |  |  |  | TK+ | >200 µM
NN1C(=O)/C(=C\c2ccc(F)cc2)SC1=S | IC50 | NS5B polymerase | Hepatitis C virus |  |  |  |  | ≤30 µM
CCC(CC)[C@H](NC(C)=O)[C@@H]1[C@H](O)[C@@H](C(=O)O)C[C@H]1N=C(N)N | IC50 | Influenza virus neuraminidase | Influenza A virus |  |  |  | H3N2 | 0.0006 µM
CCOc1ccc2ccccc2c1C(=O)Nc1nnc(NCCSc2ccccc2)s1 | IC50 | Polymerase | Human cytomegalovirus |  |  |  |  | >25 µM
CCCC(=O)N(Cc1ccc(F)cc1F)c1cc(-c2ccccc2)sc1C(=O)O | IC50 | NS3 ATPase | Hepatitis C virus |  |  |  |  | <5 µM
CCn1cnc2c(N)ncnc21 | IC50 | Phosphoribosyltransferase | Toxoplasma gondii |  |  |  | RH | >900 µM
O=c1cc[nH]c(=O)[nH]1 | Ki | Uracil phosphoribosyltransferase | Toxoplasma gondii |  |  |  | RH | 53 µM
Cc1c(CNc2ccc(C(=O)NC(CC(=O)O)C(=O)O)cc2)ccc2nc(N)nc(N)c12 | IC50 | DHFR | Toxoplasma gondii |  |  |  | RH | 0.00133 µM
O=c1[nH]cc(Cc2ccccc2)c(=O)[nH]1 | inhibition | Uracil phosphoribosyltransferase | Toxoplasma gondii |  | 2000 µM |  | RH | <5%
Cc1ccccc1S(=O)(=O)Nc1cc(-c2cccc(OC(F)(F)F)c2)sc1C(=O)O | IC50 | NS3 ATPase | Hepatitis C virus |  |  |  |  | 5–20 µM
Cc1nc(N)c2ncn([C@@H]3O[C@H](COC(=O)c4ccc(S(=O)(=O)F)cc4)[C@@H](O)[C@H]3O)c2n1 | inhibition | NTPase/helicase | Dengue virus |  | 300 µM |  |  | 41%
CCc1nc(N)nc(N)c1-c1ccc(N(CC)Cc2ccccc2)c([N+](=O)[O-])c1 | IC50 | DHFR | Toxoplasma gondii |  |  |  | RH | 0.17 µM
CCCCCCCCCCc1cc2cn([C@H]3C[C@H](O)[C@@H](CO)O3)c(=O)nc2o1 | IC50 | Thymidine kinase | Varicella zoster virus |  |  |  | TK+ | >200 µM
O=C(Nc1nnc(NCCCNC2CCCCC2)s1)c1cc(F)cc(F)c1 | IC50 | Polymerase | Human cytomegalovirus |  |  |  |  | >25 µM
O=C1/C(=C\c2ccc(Cl)c(OC(F)(F)F)c2)SC(=S)N1NS(=O)(=O)c1ccccc1 | IC50 | NS5B polymerase | Hepatitis C virus |  |  |  |  | ≤30 µM
CNc1nc2nc[nH]c2c(=O)[nH]1 | inhibition | Phosphoribosyltransferase | Toxoplasma gondii |  | 900 µM |  | RH | <10%
COc1ccnc(OC)n1 | IC50 | Uracil phosphoribosyltransferase | Toxoplasma gondii |  |  |  | RH | >2000 µM
CC[C@H]1C=CCC[C@@]2(C[C@@H]3CC[C@@H]4[C@H](C(=O)OCc5ccccc5)[C@]5(CCC[C@@H](C)O5)NC(=[N+]34)N2)O1 | inhibition | Nef | HIV-1 |  | 5 µM | ELISA | NL4-3 | 82.9%
O=C1NC(=S)S/C1=C/c1ccc(-c2cc(Cl)ccc2Cl)o1 | IC50 | NS5B polymerase | Hepatitis C virus |  |  |  |  | >30 µM
O=C(O)c1cc(C2CC2)c2nc(N3CCNCC3)c(F)cn2c1=O | IC50 | Gyrase | Staphylococcus aureus |  |  |  | NCTC10649 | 2 µg/mL
CCN(C(=O)OCc1ccccc1)C1CCN(CC[C@](C)(CN(C)S(=O)(=O)c2ccccc2)c2ccccc2)CC1 | fold resistance | CCR5 |  | CCR5-E283A |  | radiometric |  | >250
Cn1c(=O)c2[nH]c(=O)[nH]c2n(C)c1=O | inhibition | Phosphoribosyltransferase | Toxoplasma gondii |  | 900 µM |  | RH | <10%
O=C(Nc1nnc(NCCc2cnc[nH]2)s1)c1cc2ccccc2s1 | IC50 | Polymerase | Human cytomegalovirus |  |  |  |  | >25 µM
CC(=O)OC1C=COC=C2C[C@@]34NC(=S)S[C@]5(CC6=COC=CC(OC(C)=O)C6N5C3=O)C(=O)N4C21 | IC50 | RNA polymerase | Coxsackie virus |  |  |  | TYPE A21 | 3 µg/mL
O=C(C1CCCCC1)N1C[C@H](CN2CCC(c3ccccc3)CC2)[C@@H](c2ccccc2)C1 | fold resistance | CCR5 |  | CCR5-W86A |  | radiometric |  | >43.48
COc1cc(/C=C2/SC(=S)NC2=O)ccc1O | IC50 | NS5B polymerase | Hepatitis C virus |  |  |  |  | ≤30 µM
CCc1nc(N)nc(N)c1-c1ccc(Cc2ccccc2)c([N+](=O)[O-])c1 | IC50 | DHFR | Toxoplasma gondii |  |  |  | RH | 0.019 µM
C=CCOC(=O)C1=C(C)NC(N)=[N+]2[C@H](C[C@@H](O)CCCCCCOCc3ccccc3)CC[C@H]12 | IC50 | Nef | HIV-1 |  |  | ELISA | NL4-3 | <5 µM
CC(=O)NC[C@@H](C=O)NC(=O)[C@H](Cc1ccccc1)NC(=O)[C@H](CC(C)C)NC(=O)OCc1ccccc1 | Ki | Protease | Rhinovirus |  |  | FRET | TYPE 14 | 0.006 µM
O=C(O)c1sc(-c2ccccc2)cc1NS(=O)(=O)c1ccccn1 | IC50 | NS3 ATPase | Hepatitis C virus |  |  |  |  | >20 µM
CC(=O)OC1C=COC=C2C[C@@]3(S)C(=O)N4C5C(=COC=CC5OC(C)=O)C[C@@]4(S)C(=O)N3C21 | IC50 | RNA polymerase | Coxsackie virus |  |  |  | TYPE A21 | 5.5 µg/mL
CN1CCN(c2nc3c(C4CC4)cc(C(=O)O)c(=O)n3cc2F)CC1 | IC50 | Gyrase | Staphylococcus aureus |  |  |  | NCTC10649 | 1 µg/mL
CN1C(=O)[C@]23CC4=CC=C[C@H](O)[C@H]4N2C(=O)[C@@]1(CO)SSSS3 | IC50 | RNA polymerase | Coxsackie virus |  |  |  | TYPE A21 | 0.8 µg/mL
CCCCCCCCc1cc2cn([C@H]3C[C@H](O)[C@@H](CO)S3)c(=O)nc2o1 | IC50 | Thymidine kinase | Varicella zoster virus |  |  |  | TK+ | 31 µM
O=c1ncc2[nH]cnc2[nH]1 | Ki | Phosphoribosyltransferase | Toxoplasma gondii |  |  |  | RH | 570 µM
Cn1c2ccccc2c2c3c(c4c5ccccc5n(CC(F)F)c4c21)CNC3=O | IC50 | Protein kinase C |  |  |  |  |  | 0.032 µM
COc1c(N2CCC(N)C2)c(F)cn2c(=O)c(C(=O)O)cc(C3CC3)c12 | IC50 | Gyrase | Staphylococcus aureus |  |  |  | NCTC10649 | 0.3 µg/mL
CN1Cc2c(c3c4ccccc4n(C)c3c3c2c2ccccc2n3CCC#N)C1=O | IC50 | cGMP-dependent kinase |  |  |  |  |  | >30 µM
C=CCOC(=O)C1=C(CCCCC[C@@H](C)O[Si](C)(C)C(C)(C)C)NC2=[N+]3[C@H](CC[C@@H]13)C[C@H](C)N2 | IC50 | Nef | HIV-1 |  |  | ELISA | NL4-3 | <5 µM
O=C(O)c1sc(-c2ccccc2)cc1NS(=O)(=O)c1cccc(Br)c1 | IC50 | NS3 ATPase | Hepatitis C virus |  |  |  |  | 5–20 µM
Cc1cc(=O)[nH]c(=O)[nH]1 | IC50 | Uracil phosphoribosyltransferase | Toxoplasma gondii |  |  |  | RH | >2000 µM
O=C(O)c1sc(-c2ccccc2)cc1NS(=O)(=O)c1ccccc1OC(F)(F)F | IC50 | NS3 ATPase | Hepatitis C virus |  |  |  |  | >20 µM
CO[P@](=O)(c1cc(C)cc(/C=C/C#N)c1)c1c(C(N)=O)[nH]c2ccc(Cl)cc12 | IC50 | Reverse transcriptase | HIV | Y181C |  |  |  | 0.361 µM
N#CCCn1c2ccc(O)cc2c2c3c(c4c5cc(O)ccc5[nH]c4c21)C(=O)NC3 | IC50 | Myosin light-chain kinase |  |  |  |  |  | 0.43 µM
CCOc1ccc2ccccc2c1C(=O)Nc1nnc(NCc2cccnc2)s1 | IC50 | Polymerase | Human cytomegalovirus |  |  |  |  | <25 µM
O=c1cccc(O)[nH]1 | Ki | Uracil phosphoribosyltransferase | Toxoplasma gondii |  |  |  | RH | 200 µM
NC(=O)c1ncn([C@@H]2O[C@H](COC(=O)c3ccc(S(=O)(=O)F)cc3)[C@@H](O)[C@H]2O)n1 | inhibition | NTPase/helicase | West Nile virus |  | 300 µM |  |  | 47%
CC[C@H]1C=CCC[C@@]2(C[C@@H]3CC[C@@H]4[C@H](C(=O)OCCCCCCCCCCC(=O)N(CCC[NH3+])C[C@@H](O)CC[NH3+])[C@]5(CCC[C@@H](C)O5)NC(=[N+]34)N2)O1 | inhibition | Nef | HIV-1 |  | 5 µM | ELISA | NL4-3 | 89.5%
CC(=O)OC1C=COC=C2C[C@H]3C(=O)N4C5C(=COC=CC5OC(C)=O)C[C@H]4C(=O)N3C21 | IC50 | RNA polymerase | Coxsackie virus |  |  |  | TYPE A21 | 30 µg/mL
O=c1cc(CCl)[nH]c(=O)[nH]1 | inhibition | Uracil phosphoribosyltransferase | Toxoplasma gondii |  | 2000 µM |  | RH | <5%

The last 8 rows once more:

compound | endpoint | protein | organism | mutations | dose | method | strain or isolate | result
CO[P@](=O)(c1cc(C)cc(/C=C/C#N)c1)c1c(C(N)=O)[nH]c2ccc(Cl)cc12 | IC50 | Reverse transcriptase | HIV | Y181C |  |  |  | 0.361 µM
N#CCCn1c2ccc(O)cc2c2c3c(c4c5cc(O)ccc5[nH]c4c21)C(=O)NC3 | IC50 | Myosin light-chain kinase |  |  |  |  |  | 0.43 µM
CCOc1ccc2ccccc2c1C(=O)Nc1nnc(NCc2cccnc2)s1 | IC50 | Polymerase | Human cytomegalovirus |  |  |  |  | <25 µM
O=c1cccc(O)[nH]1 | Ki | Uracil phosphoribosyltransferase | Toxoplasma gondii |  |  |  | RH | 200 µM
NC(=O)c1ncn([C@@H]2O[C@H](COC(=O)c3ccc(S(=O)(=O)F)cc3)[C@@H](O)[C@H]2O)n1 | inhibition | NTPase/helicase | West Nile virus |  | 300 µM |  |  | 47%
CC[C@H]1C=CCC[C@@]2(C[C@@H]3CC[C@@H]4[C@H](C(=O)OCCCCCCCCCCC(=O)N(CCC[NH3+])C[C@@H](O)CC[NH3+])[C@]5(CCC[C@@H](C)O5)NC(=[N+]34)N2)O1 | inhibition | Nef | HIV-1 |  | 5 µM | ELISA | NL4-3 | 89.5%
CC(=O)OC1C=COC=C2C[C@H]3C(=O)N4C5C(=COC=CC5OC(C)=O)C[C@H]4C(=O)N3C21 | IC50 | RNA polymerase | Coxsackie virus |  |  |  | TYPE A21 | 30 µg/mL
O=c1cc(CCl)[nH]c(=O)[nH]1 | inhibition | Uracil phosphoribosyltransferase | Toxoplasma gondii |  | 2000 µM |  | RH | <5%